Anti-infective test results gathered from many reports (values: NIAID ChemDB through PubChem).

Common to all: tests in culture; organism: HIV-1; read-out: fold resistance

Rows are shuffled and stem from different studies. Blank or dashed fields: not listed here. Fold resistance: result on the changed form divided by that on wild type.

CCOc1c(OCC2CCC2)c2cc(F)ccc2[nH]c1=O ; mutations: RT-Y181C ; cell line: MT-4 ; strain or isolate: Nevirapine-resistant (RT Y181C) ; value: 2.13
O=C1Nc2ccc(Cl)cc2[C@@](C#CC2CC2)(C(F)(F)F)N1 ; mutations: RT-Y181C ; value: <6.32
O=C1Nc2ccc(Cl)cc2C(C#Cc2ccsc2)(C(F)(F)F)O1 ; mutations: RT-K103N ; value: 48.1
C/C=C/COc1cc(NC(=S)OC(C)C)ccc1Cl ; mutations: RT-K101E ; cell line: CEM ; strain or isolate: IIIB ; value: 3.3
O=C1Nc2ccc(F)c(F)c2C(C#Cc2ccsc2)(C(F)(F)F)O1 ; mutations: RT-K103N ; value: 7.62
O=C1Nc2ccc(Cl)cc2[C@@](/C=C/C2CC2)(C(F)(F)F)N1 ; mutations: RT-V108I ; value: <6
CCCc1c(OCc2ccccc2)c2cc(Cl)ccc2[nH]c1=O ; mutations: RT-Y181C ; cell line: MT-4 ; strain or isolate: Nevirapine-resistant (RT Y181C) ; value: >3.38
CC(C)O/N=C/c1cc(NC(=S)OC(C)C)ccc1Cl ; mutations: RT-K101E ; cell line: CEM ; strain or isolate: IIIB ; value: 4.1
CCc1c(OC2CCCC2)c2cc(Cl)ccc2[nH]c1=O ; mutations: RT-Y181C ; cell line: MT-4 ; strain or isolate: Nevirapine-resistant (RT Y181C) ; value: 15.6
Cc1ccnc(SC(F)(F)c2nc3ccccc3o2)n1 ; mutations: RT-T139I ; strain or isolate: Calanolide-resistant (RT T139I) ; value: 6.65
CC1=C(C(=O)Nc2ccc(Cl)c(C(=O)OC(C)C)c2)SCCO1 ; mutations: RT-K101E ; cell line: CEM ; strain or isolate: IIIB ; value: 2.8
N#Cc1cc(Cl)cc(Oc2c(Br)ccc(CC(=O)Nc3ccc(S(N)(=O)=O)cc3Cl)c2F)c1 ; mutations: Y181I ; cell line: MT-4 ; value: <1
CCCc1c(OC2CCCC2)c2cc(F)ccc2[nH]c1=O ; mutations: RT-Y181C ; cell line: MT-4 ; strain or isolate: Nevirapine-resistant (RT Y181C) ; value: 7.66
CCOC1(C(F)(F)F)OC(=O)Nc2ccc(Cl)cc21 ; mutations: RT-K103N ; value: 11
FC(F)(Sc1ncccn1)c1nc2ccccc2o1 ; mutations: RT-P236L ; strain or isolate: HEPT/236 ; value: 2.57
Nc1ncnc2c1ncn2[C@@H]1O[C@H](CO)C=C1F ; mutations: K65R ; cell line: MT-2 ; value: 2.2
O=C1Nc2ccc(Cl)cc2C(C#Cc2cccnc2)(C(F)(F)F)O1 ; mutations: RT-K103N ; value: 1.42

Repeating the first 2 entries:

| compound | mutations | cell line | strain or isolate | value |
|---|---|---|---|---|
| CCOc1c(OCC2CCC2)c2cc(F)ccc2[nH]c1=O | RT-Y181C | MT-4 | Nevirapine-resistant (RT Y181C) | 2.13 |
| O=C1Nc2ccc(Cl)cc2[C@@](C#CC2CC2)(C(F)(F)F)N1 | RT-Y181C |  |  | <6.32 |